A mixed list of measured activities; the numbers were collected in NIAID ChemDB.

Shared fields: growth or infection tests; organism: Candida albicans; read by: agar diffusion; measure: MIC

An empty or dashed field is not shown. Neighbouring rows are from separate reports.

| smiles | strain | result |
|---|---|---|
| Cc1ccc(-c2cn3nc([N+](=O)[O-])sc3n2)cc1 |  | >75 µg/mL |
| C=C1C(=O)OC2C1CC=C(C)C1CCC(=C)C12 | MTCC 227 | >250 µg/mL |
| COc1cc(C)c2c(=O)cc(CC(C)=O)oc2c1C1O[C@@H](CO)[C@H](O)[C@@H](O)[C@@H]1OC(=O)/C=C\c1ccc(O)cc1 | ATCC 10231 | 1810 µM |
| O=c1[nH][nH]c2c1C(c1ccccc1)CC(Cc1ccc3ccccc3c1)=C2 |  | 200 µg/mL |
| Nc1ccc2cc(S(=O)(=O)O)ccc2c1 |  | 200 µg/mL |
| COc1ccc(C2NC(=O)Nc3n[nH]c(C(C)C)c32)cc1OC | ATCC 10231 | 312.5 µg/mL |
| Nc1ccc(S(=O)(=O)O)c2cc(S(=O)(=O)O)cc(O)c12 |  | 50 µg/mL |
| CC(C)Cc1ccc(CC2=Cc3[nH][nH]c(=O)c3C(c3ccc(Br)cc3)C2)cc1 |  | 25 µg/mL |
| O=S(=O)(O)c1ccc2cc(O)c(S(=O)(=O)O)cc2c1 |  | 50 µg/mL |
| CCOC(=O)C(C#N)C(c1cc2ccc(OC)cc2n2nnnc12)P(=O)(OCC)OCC | MTCC 277 | 20 µg/mL |
| O=[N+]([O-])c1ccc(-c2cn3nc(Cl)sc3n2)cc1 |  | >75 µg/mL |
| Cc1ccc(C2CC(Cc3ccc4ccccc4c3)=Cc3[nH][nH]c(=O)c32)cc1 |  | 100 µg/mL |
| O=S(=O)(O)c1cc(O)c2ccc(Nc3ccccc3)cc2c1 |  | 10.28 µg/mL |
| C/C=C(\CO)C1CC2c3[nH]c4ccccc4c3CCN2C=C1C(=O)OC |  | 95 µg/mL |
| O=[N+]([O-])c1ccc(-c2cn3nc([N+](=O)[O-])sc3n2)cc1 |  | >75 µg/mL |
| CCCCCCCCCCCCCCCC[n+]1ccc(N)cc1 |  | 15.62 µM |

2 of the rows above, restated:

smiles,strain,result
Nc1ccc2cc(S(=O)(=O)O)ccc2c1,,200 µg/mL
C/C=C(\CO)C1CC2c3[nH]c4ccccc4c3CCN2C=C1C(=O)OC,,95 µg/mL